Anti-infective test results gathered from many reports (values: NIAID ChemDB through PubChem).

Common to all: tests in culture; agent: Herpes simplex virus 1; read by: plaque count; endpoint: EC50

Blank or dashed fields: not listed here. Rows are shuffled and stem from different studies. ECn is the concentration giving n% inhibition of infection, replication or growth.

SMILES	cell line	strain	value
Cc1c(Cl)nc2cc(N(C)C)ccc2c1Cl	KB	-	2 µg/mL
COc1ccc(-c2cc(N3CCCCC3)no2)c(O)c1	VERO	ATCC VR733	>364 µM
CCCCCCCCCC(=O)OCC(CO[C@@H]1O[C@H](CO)[C@@H](O)[C@H](O)[C@H]1O)OC(=O)CCCCCCCCC	VERO	KOS	>50 µg/mL
CCCCCCCCCCCCOCCCOP(=O)(O)CO[C@H](CO)Cn1ccc(N)nc1=O	HFF	E-377	0.5 µM
CCCCCCCC/C=C\CCCCCCCC(=O)OCC(CO[C@@H]1O[C@H](CO)[C@@H](O)[C@H](O)[C@H]1O)OC(=O)CCCCCCC/C=C\CCCCCCCC	VERO	KOS	>50 µg/mL
Nc1nccc2nn([C@@H]3O[C@H](CO)[C@@H](O)[C@H]3O)nc12	VERO	-	>398 µM
CCCCCCCCCCCCCCCCOP1(=O)CO[C@@H](Cn2ccc(N)nc2=O)CO1	HFF	HL-3	>1 µM
CCN(CC)c1cc(-c2ccc(OC)cc2OC)on1	VERO	ATCC VR733	>362 µM
O=c1[nH]c(=O)n(C[C@]2(CO)C[C@H]2CO)cc1/C=C/Cl	HEL	-	0.7 µg/mL
Cc1cn(N2C[C@H](CO)[C@H]2CO)c(=O)[nH]c1=O	VERO	-	>10 µg/mL
Nc1nc2c(ncn2CC(CO)CCO)c(=O)[nH]1	SIRC	C42	1.4 µM
Nc1nccc2nnn([C@@H]3O[C@H](CO)[C@@H](O)[C@H]3O)c12	VERO	-	>398 µM
CCCCCCCCCCCCCCCCCC(=O)OCC(CO[C@@H]1O[C@H](CO)[C@@H](O)[C@H](O)[C@H]1O)OC(=O)CCCCCCCCCCCCCCCCC	VERO	KOS	>50 µg/mL
Cc1cc(Cl)c2ccc(N(C)C)cc2n1	KB	-	3 µg/mL
CCCCC/C=C\C/C=C\CCCCCCCC(=O)OCC(CO[C@@H]1O[C@H](CO)[C@H](O)[C@H](O)[C@H]1O)OC(=O)CCCCCCC/C=C\C/C=C\CCCCC	VERO	KOS	<50 µg/mL
CC(CC[C@@H](C)C1CCC2C3C[C@H](COS(=O)(=O)O)C4C[C@H](OS(=O)(=O)O)[C@@H](OS(=O)(=O)O)C[C@]4(C)C3CC[C@@]21C)C(C)(C)C.[Na+].[Na+].[Na+]	VERO	KOS	5.63 µg/mL
OC[C@H]1O[C@@H](n2nnc3ccnc(Cl)c32)[C@H](O)[C@@H]1O	VERO	-	>370 µM
CCCCCCCCCCCCCCCCCOC[C@H](COP1(=O)CO[C@@H](Cn2ccc(N)nc2=O)CO1)OCc1ccccc1	HFF	E-377	0.4 µM
CCN(CC)c1cc(-c2ccc(O)cc2O)on1	VERO	ATCC VR733	>121 µM
Nc1nc2c(ncn2COC(CO)CO)c(=O)[nH]1	3T3	ICI	0.9 µM
CCCCCCCCCCCC(=O)OCC(CO[C@@H]1O[C@H](CO)[C@H](O)[C@H](O)[C@H]1O)OC(=O)CCCCCCCCCCC	VERO	KOS	<50 µg/mL
Nc1ccn(C[C@@H](CO)OCP(=O)(O)O)c(=O)n1	MRC-5	HMC (WILD TYPE)	6.5 µM
CCCCCCCC/C=C\CCCCCCCOCCOP1(=O)CO[C@@H](Cn2ccc(N)nc2=O)CO1	HFF	F	0.03 µM
Nc1nccc2c1nnn2[C@@H]1O[C@H](CO)[C@@H](O)[C@H]1O	VERO	-	>398 µM
Nc1nc2c(ncn2CCCCO)c(=O)[nH]1	VERO	C915 TK-	350 µM
Cc1cc(=O)c2ccc(N(C)C)cc2[nH]1	KB	-	19 µg/mL
Nc1nc2c(ncn2COCCO)c(=O)[nH]1	VERO	MGH 10	1 µM
Nc1nc2c(ncn2COCCO)c(=O)[nH]1	HFF	HL-34	0.4 µg/mL
Nc1nc2c(ncn2C[C@]2(CO)C[C@H]2CO)c(=O)[nH]1	BALB/3T3	KOS	0.0013 µg/mL
CCCCCCCC/C=C\CCCCCCCCOCCOP(=O)(O)CO[C@H](CO)Cn1ccc(N)nc1=O	HFF	E-377	0.03 µM
Nc1ncnc2c1ncn2[C@@H]1C[C@H](CO)[C@@H](O)[C@@H]1O	HEL	VR-3	18 µM
Nc1nc2c(ncn2CCCC(CO)CO)c(=O)[nH]1	VERO	SC16	1.9 µM
Nc1nc2c(ncn2C[C@]2(CO)C[C@H]2CO)c(=O)[nH]1	MRC-5	Tomioka	0.77 µg/mL
CCOc1ccc(-c2cc(N(CC)CC)no2)c(O)c1	VERO	ATCC VR733	>362 µM
Cc1ccnc2cc(N)ccc12	KB	-	2 µg/mL
Nc1nccc2c1nnn2[C@H]1C[C@H](O)[C@@H](CO)O1	VERO	-	>396 µM
CCN(CC)c1cc(-c2ccc(OC)cc2O)on1	VERO	ATCC VR733	>381 µM
C=Cc1cn(CC(CO)CO)c(=O)[nH]c1=O	VERO	KOSSB (TK-)	>50 µg/mL
CC/C=C/C/C=C/C/C=C/CCCCCCCC(=O)OCC(CO[C@@H]1O[C@H](CO)[C@@H](O)[C@H](O)[C@H]1O)OC(=O)CCCCCCC/C=C\C/C=C\CCCCC	VERO	KOS	<50 µg/mL
CC(=O)Nc1ccc2c(C)cc(Cl)nc2c1	KB	-	4 µg/mL
CCCCCCCCCCCCCCCCCCCCCC(=O)OCC(CO[C@@H]1O[C@H](CO)[C@H](O)[C@H](O)[C@H]1O)OC(=O)CCCCCCCCCCCCC	VERO	KOS	>50 µg/mL
Nc1nc2c(ncn2COC(CO)CO)c(=O)[nH]1	VERO	Shealey	3 µM
Nc1nc(=O)n([C@@H]2CC[C@H](CO)O2)cc1F	VERO	WT-34	5.6 µM
Nc1ncnc2c1nnn2[C@@H]1O[C@H](CO)[C@@H](O)[C@H]1O	VERO	-	>4.5 µM
Cc1cn([C@@H]2O[C@H](CO)[C@H]2CO)c(=O)[nH]c1=O	HFF	DM2.1 (TK-)	92 µg/mL
O=C(O)P(=O)(O)O	GMK	ANGPR	601 µM
COc1ccc(-c2cc(N(C)C)no2)c(O)c1	VERO	ATCC VR733	>427 µM
Nc1nc2c(ncn2COCCO)c(=O)[nH]1	VERO	C915 TK-	30 µM
O=C(O)P(=O)(O)O	MEF	E-377	8.4 µg/mL

6 of the rows above, restated:

| SMILES | cell line | strain | value |
|---|---|---|---|
| Cc1cn(N2C[C@H](CO)[C@H]2CO)c(=O)[nH]c1=O | VERO | - | >10 µg/mL |
| Nc1nc2c(ncn2COC(CO)CO)c(=O)[nH]1 | 3T3 | ICI | 0.9 µM |
| CCCCCCCCCCCCCCCCOP1(=O)CO[C@@H](Cn2ccc(N)nc2=O)CO1 | HFF | HL-3 | >1 µM |
| Nc1nc(=O)n([C@@H]2CC[C@H](CO)O2)cc1F | VERO | WT-34 | 5.6 µM |
| COc1ccc(-c2cc(N(C)C)no2)c(O)c1 | VERO | ATCC VR733 | >427 µM |
| Nc1ccn(C[C@@H](CO)OCP(=O)(O)O)c(=O)n1 | MRC-5 | HMC (WILD TYPE) | 6.5 µM |